A mixed list of measured activities; the numbers were collected in NIAID ChemDB.

MIC bound comes from a single tested concentration. Zone: diameter of growth inhibition. An empty or dashed field is not shown. ICn: concentration for n% inhibition. ECn: concentration that inhibits the pathogen or its effect by n%. CCn is the concentration with n% toxicity to the cells. Conditions beyond the fields shown may differ between rows. Percent inhibition refers to the dose given; in toxicity tests it is the harm to the cells.

smiles | test | organism | strain | cell line | protein | conditions | endpoint | method | dose | result
CNP1(Cl)=NP(Cl)(N(C)C)=NP(Cl)(N(C)C)=N1 | culture | Mycobacterium tuberculosis | H37Rv | - | - | - | MIC | BACTEC | - | ≥128 µg/mL
C=CP(=O)(O)OC[C@H]1O[C@@H](n2cc(C)c(=O)[nH]c2=O)C[C@@H]1F | culture | HIV-1 | - | H9 | - | - | EC50 | p24 | - | 24 µM
Cc1cn([C@H]2C[C@H](N=[N+]=[N-])[C@@H](CO)O2)c(=O)[nH]c1=O | toxicity | - | - | MT-4 | - | - | CC50 | - | - | 154 µM
O=[N+]([O-])N1CCCS1(=O)=O | culture | Mycobacterium tuberculosis | H37Rv | - | - | - | inhibition | BACTEC | 12.5 µg/mL | 0%
C(/C=C/c1ccccc1)=NCCNCCN=C/C=C/c1ccccc1.[N-]=[N+]=[N][Hg][N]=[N+]=[N-] | culture | Candida albicans | - | - | - | - | zone | agar diffusion | 30000 µg/mL | 28 mm
N#Cc1c(SCCBr)nsc1-c1ccccc1 | culture | Herpes simplex virus 1 | F | VERO | - | - | EC50 | plaque count | - | >25 µg/mL
Cc1cn([C@H]2CC[C@@H](CO)O2)c(=O)[nH]c1=O | culture | HIV-1 | - | MT-4 | - | - | EC50 | p24 / ELISA | - | 1.88 µM
Cc1cn([C@H]2CC[C@@H](CO)O2)c(=O)[nH]c1=O | culture | HIV-1 | - | PBMC | - | - | EC50 | p24 | - | 1.4 µM
CC1COP(N(C(C)C)C(C)C)O1 | culture | Mycobacterium tuberculosis | H37Rv | - | - | - | inhibition | resazurin | 6.25 µg/mL | 16%
Cc1cn([C@H]2C=C[C@@H](CO)O2)c(=O)[nH]c1=O | toxicity | - | - | PBMC | - | - | CC50 | XTT | - | 349 µM
O=c1c2ccccc2c(=O)n2n1P(Cl)CP2Cl | culture | Mycobacterium tuberculosis | H37Rv | - | - | - | MIC bound | BACTEC | - | >12.5 µg/mL
Cc1cn([C@H]2C[C@H](N=[N+]=[N-])[C@@H](COP(=O)(F)OCCSC(=O)C(C)(C)C)O2)c(=O)[nH]c1=O | culture | HIV-1 | IIIB | MT-4 | - | - | EC50 | - | - | 0.008 µM
Nc1cc([As]=O)ccc1O | culture | HIV-1 | IIIB | MT-2 | - | - | EC50 | MTT / p24 | - | 0.31 µg/mL
O=[N+]([O-])c1ccc(Cn2nnc(-c3cc([N+](=O)[O-])cc([N+](=O)[O-])c3)n2)cc1 | culture | Mycobacterium kansasii | My 235/80 | - | - | 14 d | MIC | - | - | 1 µM
Nc1ccn([C@H]2CC[C@@H](CO)O2)c(=O)n1 | toxicity | - | - | MT-4 | - | - | CC50 | XTT | - | 2280 µM
Cc1cn([C@H]2C[C@H](N=[N+]=[N-])[C@@H](COP(=O)(O)F)O2)c(=O)[nH]c1=O | culture | HIV-1 | - | PBMC | - | - | EC50 | p24 | - | 0.00055 µM
Cc1cn([C@H]2C[C@H](F)[C@@H](CO)O2)c(=O)[nH]c1=O | culture | HIV-1 | - | H9 | - | - | EC50 | p24 | - | ~0.05 µM
Cc1ccc(NCCCl)c2c(=O)c3ccccc3sc12 | culture | Mycobacterium tuberculosis | H37Rv | - | - | - | MIC bound | BACTEC | - | >12.5 µg/mL
O=[N+]([O-])c1cc(S(=O)(=O)c2cc([N+](=O)[O-])c(Cl)c([N+](=O)[O-])c2)ccc1Cl | target | HIV-1 | - | - | Integrase | - | IC50 | strand transfer | - | 65.6 µM
CSP1(SC)=NP(Cl)(Cl)=NP(Cl)(Cl)=N1 | culture | Mycobacterium tuberculosis | H37Rv | - | - | - | MIC | BACTEC | - | 128 µg/mL
CC1=NO[C@@]2(CC[C@H](C)N3C[C@H]2n2cc(C(=O)NCc4ccc(F)cc4F)c(=O)c(OC(=O)N4CCOC[C@H]4COP(=O)(O)O)c2C3=O)C1 | toxicity | - | - | MT-4 | - | - | CC50 | luminescence | - | 50 µM

Repeating the final 3 entries:

{"smiles": "O=[N+]([O-])c1cc(S(=O)(=O)c2cc([N+](=O)[O-])c(Cl)c([N+](=O)[O-])c2)ccc1Cl", "test": "target", "organism": "HIV-1", "protein": "Integrase", "endpoint": "IC50", "method": "strand transfer", "result": "65.6 µM"}
{"smiles": "CSP1(SC)=NP(Cl)(Cl)=NP(Cl)(Cl)=N1", "test": "culture", "organism": "Mycobacterium tuberculosis", "strain": "H37Rv", "endpoint": "MIC", "method": "BACTEC", "result": "128 µg/mL"}
{"smiles": "CC1=NO[C@@]2(CC[C@H](C)N3C[C@H]2n2cc(C(=O)NCc4ccc(F)cc4F)c(=O)c(OC(=O)N4CCOC[C@H]4COP(=O)(O)O)c2C3=O)C1", "test": "toxicity", "cell line": "MT-4", "endpoint": "CC50", "method": "luminescence", "result": "50 µM"}